Target: PgCoV-RBD-Fc (pangolin coronavirus (PgCoV))
Assay: SPR
Conditions: domain or fragment

“monomeric tagged soluble pangolin ACE2 (pangolin ACE2-CT)” gave a Kd of 930 nM.

Reference: paper PMC8059821
